Assay results: US20150175975A1

What was measured:
[1] = target: EILV/EEEV chimera (Eastern equine encephalitis virus) (UniProt P08768); assay: ELISA on coated EILV/EEEV chimera 1:1,000; background control, dilution 1:5,000
[2] = target: EILV/EEEV chimera (Eastern equine encephalitis virus) (UniProt P08768); assay: ELISA on coated EILV/EEEV chimera 1:100; background control, dilution 1:5,000
[3] = target: EILV/EEEV chimera (Eastern equine encephalitis virus) (UniProt P08768); assay: ELISA on coated EILV/EEEV chimera 1:1,000; background control, dilution 1:10,000

Substance “streptavidin-horseradish peroxidase conjugate (Roche Immunochemical) (from UniProt P22629 37-163)” has an O.D. (450 nm) (O.D. (450 nm)) [1] of 0.06, an O.D. (450 nm) (O.D. (450 nm)) [2] of 0.06 and an O.D. (450 nm) (O.D. (450 nm)) [3] of 0.06.

“biotin-SP-Affinipure Goat anti-Mouse IgG (Jackson Labs Cat#: 115-065-164) (antibody)” was tested, and the O.D. (450 nm) (O.D. (450 nm)) [1] was 0.06, the O.D. (450 nm) (O.D. (450 nm)) [2] was 0.07 and the O.D. (450 nm) (O.D. (450 nm)) [3] was 0.06.
